{"source": "patent US5929226A", "about": "“Antisense oligonucleotide alkylphosphonothioates and arylphospohonothioates” (dated 1999)", "test_system": "HIV-1", "test": "Anti-HIV activity in tissue culture: syncytium formation and cytopathic effect in HIV-1 infected H9 lymphocytes", "settings": "three days"}
{"sequence": "ACACCCAATTCTGAAAATGG", "values": [{"measurement": "% Reduct. in CPE", "setting": "0.32 μg/ml", "value": 2, "unit": "%"}, {"measurement": "Avg. No. of Syncytia", "setting": "0.32 μg/ml", "value": 150}, {"measurement": "% Reduct. in CPE", "setting": "1.0 μg/ml", "value": 0, "unit": "%"}, {"measurement": "Avg. No. of Syncytia", "setting": "1.0 μg/ml", "value": 156}, {"measurement": "% Reduct. in CPE", "setting": "3.2 μg/ml", "value": 65, "unit": "%"}, {"measurement": "Avg. No. of Syncytia", "setting": "3.2 μg/ml", "value": 53}, {"measurement": "% Reduct. in CPE", "setting": "10 μg/ml", "value": 100, "unit": "%"}, {"measurement": "Avg. No. of Syncytia", "setting": "10 μg/ml", "value": 0}, {"measurement": "% Reduct. in CPE", "setting": "32 μg/ml", "value": 100, "unit": "%"}, {"measurement": "Avg. No. of Syncytia", "setting": "32 μg/ml", "value": 0}, {"measurement": "% Reduct. in CPE", "setting": "100 μg/ml", "value": 100, "unit": "%"}, {"measurement": "Avg. No. of Syncytia", "setting": "100 μg/ml", "value": 0}, {"measurement": "ED50", "value": 2.45, "unit": "µg/mL"}]}
